Anti-infective test results gathered from many reports (values: NIAID ChemDB through PubChem).

Shared fields: tests in culture; agent: Candida albicans

A number after MIC or MFC names an inhibition level or a share of isolates. Neighbouring rows are from separate reports. Blank or dashed fields: not listed here. ECn is the concentration giving n% inhibition of infection, replication or growth.

SMILES	conditions	strain	endpoint	method	value
CC(=O)N1CCN(c2ccc(OC[C@H]3CO[C@](Cn4ccnc4)(c4ccc(Cl)cc4Cl)O3)cc2)CC1	-	40 isolates azole-susceptible	MIC90	-	0.01 µg/mL
C[C@@H](N1CCN(Cc2c[nH]c3ccccc23)CC1)[C@](O)(Cn1cncn1)c1ccc(F)cc1F	-	ATCC 90028	MIC80	resazurin	0.25 µg/mL
C[C@H](n1cnc2cc(Cl)ccc2c1=O)[C@@](O)(Cn1cncn1)c1ccc(F)cc1F	-	76 strains	MIC	-	80 µg/mL
C=CCSS(=O)CC=C	-	Clinical Isolate 3072	MIC50	broth dilution	0.1 µg/mL
C[C@@H](n1cnc2ccc(Br)cc2c1=O)[C@](O)(Cn1cncn1)c1ccc(F)cc1F	-	76 strains	MIC	-	20 µg/mL
c1ccc(-c2ccc(COC(Cn3ccnc3)c3ccccc3)cc2)cc1	-	5M	MIC	-	128 µg/mL
O[C@](Cn1cncn1)(Cn1cnc(/C=C/c2ccc(OCC(F)(F)C(F)F)cc2)n1)c1ccc(F)cc1F	-	Isolate 02-96	MIC	-	4 µg/mL
CCC(C)n1ncn(-c2ccc(N3CCN(c4ccc(OC[C@H]5CO[C@](Cn6cncn6)(c6ccc(Cl)cc6Cl)O5)cc4)CC3)cc2)c1=O	-	406 strains	MIC	-	0.07 µg/mL
CCCCCOc1ccc(-c2ccc(-c3ccc(C(=O)N[C@H]4CCCNC(=O)C5C[C@H](N)CN5C(=O)C(CN)NC(=O)C(CCc5ccc(O)cc5)NC(=O)C5C[C@@H](O)CN5C(=O)C(C(C)O)NC4=O)cc3)cc2)cc1	-	ATCC 62376	MIC	-	1.56 µg/mL
Cc1ccc(C(Cn2ccnc2)OC/C=C/c2ccccc2)cc1	-	5M	MIC	-	>128 µg/mL
CCCCCCCCCCCCOc1ccc(N2CCN(c3ccc(C(=O)N[C@H]4CCCNC(=O)C5C[C@H](N)CN5C(=O)C(C(C)O)NC(=O)C(CCc5ccc(O)cc5)NC(=O)C5C[C@@H](O)CN5C(=O)C(C(C)O)NC4=O)cc3)CC2)cc1	-	ATCC CCH442	MIC	-	0.78 µg/mL
C[C@@H](N1CCN(Cc2cn(Cc3ccc(Cl)cc3)c3ccccc23)CC1)[C@](O)(Cn1cncn1)c1ccc(F)cc1F	-	ATCC 36082	MIC80	resazurin	0.25 µg/mL
CN(CCCC#CC(C)(C)C)c1cccc2c1CCC(=O)N2	-	Clinical isolate 6	MIC	-	31.25 µg/mL
Clc1ccc(COc2ccc(C(c3nccc4ccccc34)n3ccnc3)cc2)cc1.O=[N+]([O-])O	-	17 strains	Mean MIC	-	≥256 µg/mL
C[C@@H](N1CCN(Cc2cn(Cc3ccc(F)cc3F)c3c(C#N)cccc23)CC1)[C@](O)(Cn1cncn1)c1ccc(F)cc1F	-	ATCC 36082	MIC80	resazurin	1 µg/mL
COc1cccc2c(=O)n([C@H](C)[C@](O)(Cn3cncn3)c3ccc(F)cc3F)cnc12	-	60 strains	MIC	-	2.5 µg/mL
CC(C)C1C[C@H]2C[C@]3(C=O)[C@@H]4CC[C@@H](C)[C@H]4C[C@@]2(CO[C@H]2CN(C4CC4)C[C@@H](C)O2)[C@]13C(=O)O	-	16 isolates	MIC50	-	0.015 µg/mL
CCCCCOc1ccc(-c2ccc(-c3ccc(C(=O)N[C@H]4CCCNC(=O)C5CCN5C(=O)C(C(C)O)NC(=O)C(CCc5ccc(O)cc5)NC(=O)C5C[C@@H](O)CN5C(=O)C(C(C)O)NC4=O)cc3)cc2)cc1	-	ATCC 10231	MIC	-	0.78 µg/mL
O=[N+]([O-])O.c1coc(C(c2nccc3ccccc23)n2ccnc2)c1	-	44 strains	MIC90	-	>256 µg/mL
Clc1ccc(C(Cn2ccnc2)OCc2ccc(-c3ccccc3)cc2)cc1	-	CA6	MIC	-	>128 µg/mL
CCCCCCCCN1CCN(c2ccc(C(=O)N[C@H]3CCCNC(=O)C4C[C@H](N)CN4C(=O)C(C(C)O)NC(=O)C(CCc4ccc(O)cc4)NC(=O)C4C[C@@H](O)CN4C(=O)C(C(C)O)NC3=O)cc2)CC1	-	ATCC 10231	MIC	-	1.56 µg/mL
CCCCCOc1ccc(-c2cc(-c3ccc(C(=O)N[C@H]4C[C@@H](O)[C@@H](O)NC(=O)[C@@H]5[C@@H](O)[C@@H](C)CN5C(=O)[C@H]([C@H](O)CC(N)=O)NC(=O)[C@H]([C@H](O)[C@@H](O)c5ccc(O)c(OS(=O)(=O)O)c5)NC(=O)[C@@H]5C[C@@H](O)CN5C(=O)[C@H]([C@@H](C)O)NC4=O)cc3)no2)cc1	-	37 isolates	MIC50	-	0.0078 µg/mL
CSc1ccc(C(c2nccc3ccccc23)n2ccnc2)cc1.O=[N+]([O-])O	-	44 strains	Mean MIC	-	160.9 µg/mL
COC(=O)[C@H]1[C@@H]2C[C@@H](O[C@@H]3O[C@H](C)[C@@H](O)[C@H](N)[C@@H]3O)/C=C/C=C/C=C/C=C/C=C/C=C/C=C/[C@H](C)[C@@H](O)[C@H](C)[C@H](C)OC(=O)C[C@H](O)C[C@H](O)[C@@H](O)CC[C@H](O)C[C@H](O)C[C@](O)(C[C@@H]1O)O2	pH 5	15 isolates	MIC	broth dilution	4 µg/mL
Clc1ccc(C(Cn2ccnc2)OC/C=C/c2ccccc2)c(Cl)c1	-	5M	MIC	-	4 µg/mL
Cc1ccc(-c2c3c(N)c4c(nc3nc3c2c(C)nn3-c2ccccc2)CCCC4)cc1	-	CCC 129	MIC80	broth dilution / absorbance	31.2 µg/mL
OC(CN1CCN(c2ccc(OCc3ccncc3)cc2)CC1)(Cn1cncn1)c1ccc(F)cc1F	-	FHB3	MIC80	-	1 µg/mL
CCCCCCCCOc1ccc(C(=O)NC2C[C@@H](O)[C@@H](O)NC(=O)C3[C@@H](O)[C@@H](C)CN3C(=O)C(C(C)O)NC(=O)C([C@H](O)[C@@H](O)c3ccc(O)cc3)NC(=O)C3C[C@@H](O)CN3C(=O)C(C(C)O)NC2=O)cc1	-	MY1783	MIC	-	1 µg/mL
CC[C@@H]([C@H](C)O)n1ncn(-c2ccc(N3CCN(c4ccc(OC[C@@H]5CO[C@@](Cn6cncn6)(c6ccc(F)cc6F)C5)cc4)CC3)cc2)c1=O	pH 6	10 isolates	EC90	broth dilution	0.06 µg/mL
CCC(C)CC(C)CCCCCCCCC(=O)NC1C[C@H](O)[C@@H](O)NC(=O)[C@@H]2[C@@H](O)[C@@H](C)CN2C(=O)[C@H]([C@H](O)CC(N)=O)NC(=O)[C@H](C(O)[C@H](O)c2ccc(O)cc2)NC(=O)[C@@H]2C[C@@H](O)CN2C(=O)[C@H]([C@@H](C)O)NC1=O	-	MY1783	MIC	-	0.5 µg/mL
Clc1ccc(C(Cn2ccnc2)OCc2cccc3ccccc23)c(Cl)c1	-	5M	MIC	-	8 µg/mL
Cc1ccc(-c2c3c(N)c4c(nc3nc3c2c(C)nn3-c2ccccc2)CCC4)cc1	-	CCC 127	MIC100	broth dilution / absorbance	62.5 µg/mL
CCCCCOc1ccc(-c2ccc(-c3ccc(C(=O)N[C@H]4CCCNC(=O)C5C[C@H](N)CN5C(=O)C(C(C)C)NC(=O)C(CCc5ccc(O)cc5)NC(=O)C5C[C@@H](O)CN5C(=O)C(C(C)O)NC4=O)cc3)cc2)cc1	-	ATCC 62376	MIC	-	50 µg/mL
c1ccc(C(Cn2ccnc2)OCc2cccc3ccccc23)cc1	-	CA6	MIC	-	>128 µg/mL
CCC(C)n1ncn(-c2ccc(N3CCN(c4ccc(OC[C@H]5CO[C@](Cn6cncn6)(c6ccc(Cl)cc6Cl)O5)cc4)CC3)cc2)c1=O	-	A28235	MIC	-	0.03 µg/mL
Cc1nn(-c2ccccc2)c2nc3nc4c(c(N)c3c(-c3ccc(Cl)cc3)c12)CCCCC4	-	ATCC 10231	MIC50	broth dilution / absorbance	125 µg/mL
CCOc1cc2c(cc1F)n([O-])c(C)c(S(=O)(=O)c1ccccc1)[n+]2=O	-	Clinical isolate 17	MIC	-	31.25 µg/mL
C[C@@H](n1cnc2ccccc2c1=O)[C@](O)(Cn1cncn1)c1ccc(F)cc1F	-	406 strains	MIC	-	≤0.03 µg/mL
C=CCn1cc(CN2CCN([C@H](C)[C@](O)(Cn3cncn3)c3ccc(F)cc3F)CC2)c2ccc(Cl)cc21	-	ATCC MYA-1003	MIC80	resazurin	8 µg/mL
Cc1c(S(=O)(=O)c2ccccc2)[n+](=O)c2ccccc2n1[O-]	-	Clinical isolate 8	MIC	-	15.6 µg/mL
C[C@@H](n1cnc2cc(C#N)ccc2c1=O)[C@](O)(Cn1cncn1)c1ccc(F)cc1F	-	76 strains	MIC	-	0.15 µg/mL
C[C@H]1[C@H](O)[C@@H](C)/C=C/C=C/C=C/C=C/C=C/C=C/C=C/[C@H](O[C@@H]2O[C@H](C)[C@@H](O)[C@H](N)[C@@H]2O)C[C@@H]2O[C@](O)(C[C@@H](O)C[C@@H](O)CC[C@H](O)[C@@H](O)C[C@@H](O)CC(=O)O[C@H]1C)C[C@H](O)[C@H]2C(=O)O	-	34 isolates	MIC50	-	0.5 µg/mL
Clc1ccc(COc2ccc(C(c3cccc4ccccc34)n3ccnc3)cc2)c(Cl)c1.O=[N+]([O-])O	-	16 strains	MIC90	-	≥256 µg/mL
C[C@@H](n1cnc2cc(Cl)ccc2c1=O)[C@](O)(Cn1cncn1)c1ccccc1F	-	76 strains	MIC	-	5 µg/mL
Nc1[nH]c(=O)ncc1F	pH 5	15 isolates	MIC	broth dilution	0.125 µg/mL
CSc1ccc2c(=O)n([C@H](C)[C@](O)(Cn3cncn3)c3ccc(F)cc3F)cnc2c1	-	406 strains	MIC	-	≤0.03 µg/mL
C[C@@H](N1CCN(Cc2cn(Cc3ccc(Cl)cc3Cl)c3cc(Cl)ccc23)CC1)[C@](O)(Cn1cncn1)c1ccc(F)cc1F	-	ATCC 64548	MIC80	resazurin	0.125 µg/mL
Clc1ccc(C(Cn2ccnc2)OC/C=C/c2ccccc2)cc1	-	CA2	MIC	-	128 µg/mL
Clc1ccc(COc2ccc(C(c3ccc4ccccc4c3)n3ccnc3)cc2)cc1.O=[N+]([O-])O	-	16 strains	Mean MIC	-	≥256 µg/mL
CC(C)(C)c1ccc(COC(Cn2ccnc2)c2ccccc2)cc1	-	Y0109	MIC	-	>128 µg/mL
COc1ccc(-c2c3c(N)c4c(nc3nc3c2c(C)nn3-c2ccccc2)CCCCC4)cc1	-	ATCC 10231	MIC50	broth dilution / absorbance	125 µg/mL
O=[n+]1c(Sc2ccccc2)c(CBr)n([O-])c2ccccc21	-	Clinical isolate 9	MIC	-	31.25 µg/mL
Cc1ccc(-c2c3c(N)c4c(nc3nc3c2c(C)nn3-c2ccccc2)CCCCC4)cc1	-	CCC 129	MIC100	broth dilution / absorbance	250 µg/mL
C=C(C)CN1C[C@H](OC[C@@]23C[C@@H]4[C@H](C)CC[C@H]4[C@@]4(C=O)C[C@@H]2CC(C(C)C)[C@@]34C(=O)O)O[C@H](C)C1	-	16 isolates/fluconazole resistant	MIC90	-	0.015 µg/mL
CC(C)(O)c1cn(-c2ccc(Cl)cc2)nn1	-	URM 4127	MIC	broth dilution	128 µg/mL
C=CCc1ccc(O)c(OC)c1	-	3048	MIC90	turbidity	500 µg/mL
C[C@@H](c1ncncc1F)[C@](O)(Cn1cncn1)c1ccc(F)cc1F	pH 7	15 isolates	EC90	broth dilution	0.03 µg/mL
C[C@@H](n1cnc2cc(N3CCOCC3)ccc2c1=O)[C@](O)(Cn1cncn1)c1ccc(F)cc1F	-	406 strains	MIC	-	0.15 µg/mL
Cc1c(O)cccc1C(=O)N[C@@H](CSc1ccccc1)[C@H](O)CN1C[C@H]2CCCC[C@H]2C[C@H]1C(=O)NC(C)(C)C	-	I107A	MIC	-	64 µg/mL
CCC(C)CC(C)CCCCCCCCC(=O)N[C@H]1C[C@@H](O)[C@H](NCCN)NC(=O)[C@@H]2[C@@H](O)CCN2C(=O)[C@H]([C@H](O)CCN)NC(=O)[C@H]([C@H](O)[C@@H](O)c2ccc(O)cc2)NC(=O)[C@@H]2C[C@@H](O)CN2C(=O)[C@H]([C@@H](C)O)NC1=O	-	50 isolates	MIC50	-	0.2 µg/mL
C=CCN1C[C@H](OC[C@@]23C[C@@H]4[C@H](C)CC[C@H]4[C@@]4(C=O)C[C@@H]2CC(C(C)C)[C@@]34C(=O)O)O[C@H](C)C1	-	16 isolates	MIC90	-	0.03 µg/mL
Nc1[nH]c(=O)ncc1F	-	Fluconazole-susceptible	MIC90	-	1 µg/mL
N=C(N)c1ccc2nc(-c3ccc(-c4nc5ccc(C(=N)N)cc5[nH]4)[nH]3)[nH]c2c1	-	Isolate 3022 fluconazole-resistant	MIC	-	0.78 µg/mL
CC(/C=C/C=C(\C)C(O)C(C)C(=O)O[C@H]1C[C@@H](C)C=C2C=C[C@]3(C)O[C@@H](O)CC(=O)[C@]3(C)[C@H]21)=C\C=C\C(=O)O	-	AC3414	MIC	-	0.78 µg/mL

A second listing of 8 rows from above:

SMILES | conditions | strain | endpoint | method | value
O[C@](Cn1cncn1)(Cn1cnc(/C=C/c2ccc(OCC(F)(F)C(F)F)cc2)n1)c1ccc(F)cc1F | - | Isolate 02-96 | MIC | - | 4 µg/mL
Cc1ccc(C(Cn2ccnc2)OC/C=C/c2ccccc2)cc1 | - | 5M | MIC | - | >128 µg/mL
Clc1ccc(COc2ccc(C(c3cccc4ccccc34)n3ccnc3)cc2)c(Cl)c1.O=[N+]([O-])O | - | 16 strains | MIC90 | - | ≥256 µg/mL
C=CCSS(=O)CC=C | - | Clinical Isolate 3072 | MIC50 | broth dilution | 0.1 µg/mL
CCOc1cc2c(cc1F)n([O-])c(C)c(S(=O)(=O)c1ccccc1)[n+]2=O | - | Clinical isolate 17 | MIC | - | 31.25 µg/mL
Cc1c(O)cccc1C(=O)N[C@@H](CSc1ccccc1)[C@H](O)CN1C[C@H]2CCCC[C@H]2C[C@H]1C(=O)NC(C)(C)C | - | I107A | MIC | - | 64 µg/mL
C[C@@H](c1ncncc1F)[C@](O)(Cn1cncn1)c1ccc(F)cc1F | pH 7 | 15 isolates | EC90 | broth dilution | 0.03 µg/mL
CC(C)(O)c1cn(-c2ccc(Cl)cc2)nn1 | - | URM 4127 | MIC | broth dilution | 128 µg/mL